Patent US20240277795A1, “INHIBITORS OF CYSTEINE PROTEASES AND METHODS OF USE THEREOF” (Pardes Biosciences, Inc., priority 2021, published 2024)

The chains behind the UniProt entries cited, without tags or fusion partners. Residues count along the entry.
UniProt P0C6X6, 3247-3549 limits assumed: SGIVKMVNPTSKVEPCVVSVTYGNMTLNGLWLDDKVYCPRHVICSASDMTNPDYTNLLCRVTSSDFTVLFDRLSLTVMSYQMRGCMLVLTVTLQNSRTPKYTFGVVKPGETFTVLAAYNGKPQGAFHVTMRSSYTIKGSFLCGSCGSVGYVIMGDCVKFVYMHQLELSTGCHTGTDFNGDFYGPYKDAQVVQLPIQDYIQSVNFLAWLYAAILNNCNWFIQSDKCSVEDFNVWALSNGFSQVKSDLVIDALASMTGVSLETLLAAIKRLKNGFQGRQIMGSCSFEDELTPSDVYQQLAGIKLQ
UniProt P0C6X1, 2966-3267 limits assumed: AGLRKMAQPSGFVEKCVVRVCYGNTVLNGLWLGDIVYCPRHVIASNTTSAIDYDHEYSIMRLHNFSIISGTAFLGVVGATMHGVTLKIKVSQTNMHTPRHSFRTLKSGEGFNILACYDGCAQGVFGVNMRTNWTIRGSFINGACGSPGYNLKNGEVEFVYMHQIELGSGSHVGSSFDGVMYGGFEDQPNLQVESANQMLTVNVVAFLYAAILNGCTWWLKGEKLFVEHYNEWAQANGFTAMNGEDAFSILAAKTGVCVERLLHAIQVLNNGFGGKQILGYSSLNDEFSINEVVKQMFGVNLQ

What was measured:
[1] = molecular target: OC43 Mpro (Human coronavirus OC43, UniProt P0C6X6); experiment: OC43 Mpro enzymatic assay; conditions: read-out: OC43 Mpro IC50; Table 3
Protocol: (§1) Compounds were assayed using standard methods to assess compound activity and IC50. As an exemplary for assessment of the SARS-COV2 Mpro, the C-His6-tagged Mpro (NC_045512) was cloned, expressed in E. coli and purified. The assay buffer contained 20 mM of Tris-HCl (pH 7.3), 100 mM of NaCl, 1 mM of EDTA, 5 mM of TCEP and 0.1% BSA. The final concentrations of the Mpro protein and substrate were 25 nM and 25 μM, respectively, in the Mpro enzymatic assay. The Km of the Mpro substrate for the protease was 13.5 μM.
(§2) The compounds were added to an assay plate. For 100% inhibition control (HPE, hundred percent effect), 1 μM GC376 was added. For no inhibition control (ZPE, zero percent effect), no compound was added.
(§3) IC50 values of compounds were calculated with the GraphPad Prism software using the nonlinear regression model of log(inhibitor) vs. response—Variable slope (four parameters). The inhibition activity was calculated using the formula below, IC50 values is calculated using the Inhibition % data.
(§4) [formula] • #HEP: Hundred percent effect controls. Containing substrate+enzyme+1 μM GC376. • ZPE: Zero percent effective controls. Containing enzyme+substrate, no compound. • Sample: Compound activity testing wells. Containing compound+enzyme+substrate. • BG: Compound background control wells. Containing compound+substrate, no enzyme.

[2] = molecular target: 229E Mpro (Human coronavirus 229E, UniProt P0C6X1); experiment: 229E Mpro enzymatic assay; conditions: read-out: 229E Mpro IC50; Table 3
Protocol: as §1, §2, §3, §4

[3] = molecular target: SARS-COV2 Mpro (Severe acute respiratory syndrome coronavirus 2, UniProt P0DTD1); experiment: COVID-19 (nCoV-2019, SARS-CoV2) Mpro enzymatic assay; conditions: read-out: COVID-19 Mpro IC50; Table 3

Measured: pIC50

CC1(C)[C@@H]2[C@@H](C(=O)N[C@H](C#N)C[C@@H]3CC4(CC4)NC3=O)N(C(=O)C(NC(=O)C(F)(F)F)C3CC(F)(F)C3)C[C@@H]21 (single isomer, unassigned)
> 5.70: all assays above

pIC50: −log10 of the molar value.
